A mixed list of measured activities; the numbers were collected in NIAID ChemDB.

Shared fields: growth or infection tests; species: Mycobacterium tuberculosis

ECn is the concentration giving n% inhibition of infection, replication or growth. Inhibition is in % at the dose shown (toxicity tests: loss of growth or viability). An empty or dashed field is not shown. MIC bound comes from a single tested concentration. For "inactive" no cut-off is given. Conditions beyond the fields shown may differ between rows. A number after MIC or MFC names an inhibition level or a share of isolates.

smiles	strain	endpoint	tested at	changes	method	value
Cc1cccc(OC/C(N)=N\NC(=O)c2ccncc2)c1	ATCC 35820 (streptomycin-resistant)	MIC	-	-	-	6.25 µg/mL
CC1CCC(=NNC(=O)Cc2csc3nc(-c4ccc(Cl)cc4)cn23)CC1	H37Rv	MIC	-	-	-	>6.25 µg/mL
O=C(C/C=C/c1ccccc1)Nc1ccccc1N1CCSCC1	103471	MIC	-	-	-	>16 µg/mL
NC(=O)c1cnccn1	Isolate J	MIC	-	-	-	>100 µg/mL
CO[C@H]1/C=C/O[C@@]2(C)Oc3c(C)c(O)c4c(O)c(c5c(c4c3C2=O)NC2(CCN(CC(C)C)CC2)N=5)=NC(=O)/C(C)=C\C=C\[C@H](C)[C@H](O)[C@@H](C)[C@@H](O)[C@@H](C)[C@H](OC(C)=O)[C@@H]1C	H37Rv	MBC	-	-	-	0.062 µg/mL
C[n+]1c(-c2ccc(/C=N/NC(=O)C(=O)N/N=C/c3ccc(-c4cn5ccccc5[n+]4C)cc3)cc2)cn2ccccc21.[Br-].[Br-]	H37Rv	inhibition	12.5 µg/mL	-	BACTEC	0%
N/C(COc1ccc([N+](=O)[O-])cc1)=N/NC(=O)c1ccncc1	ATCC 35822 (isoniazid-resistant)	MIC	-	-	-	50 µg/mL
CO[C@H]1/C=C/O[C@@]2(C)Oc3c(C)c(O)c4c(O)c(c(/C=N/N5CCN(C)CC5)c(O)c4c3C2=O)NC(=O)/C(C)=C\C=C\[C@H](C)[C@H](O)[C@@H](C)[C@@H](O)[C@@H](C)[C@H](OC(C)=O)[C@@H]1C	CHUV80045776	MIC	-	katG mutant isoniazid resistant	resazurin / absorbance	0.001 µg/mL
CC(=O)NC[C@H]1CN(c2ccc(N3CCOCC3)c(F)c2)C(=O)O1	3S	MIC	-	-	-	0.5 µg/mL
NC(=O)c1cnccn1	DHMH4319 niacin-positive	MIC	-	-	-	>2048 µg/mL
O=C(O)c1cc(-c2cccs2)nc2ccccc12	H37Rv	MIC	-	-	fluorescence	>6.25 µg/mL
CC1CCC2(CC1)SCC(=O)N2NC(=O)Cc1csc2nc(-c3ccccc3)cn12.O	H37Rv	MIC	-	-	-	<6.25 µg/mL
Cc1ccc(/C=C(\C(N)=S)c2nc3ncccc3n2C)c(C)c1	109	MIC	-	-	-	31.2 µg/mL
O=C(Nc1nc(-c2ccccc2)cs1)c1cc(-c2cccs2)nc2ccccc12	H37Rv	MIC	-	-	fluorescence	>6.25 µg/mL
Clc1ccc(CNc2ccc(N3CCOCC3)cc2)cc1	103471	MIC	-	-	-	>16 µg/mL
Cc1cc(C(=O)CCCCOc2ccc(C3=NCCO3)cc2)c(C)n1C	H37Rv	MIC bound	-	-	BACTEC	>6.25 µg/mL
CCC1CCC(=NNC(=O)Cc2csc3nc(-c4ccccc4)cn23)CC1	H37Rv	inhibition	6.25 µg/mL	-	-	32%
C[C@@H]1CN(c2c(F)c(N)c3c(=O)c(C(=O)O)cn(C4CC4)c3c2F)C[C@H](C)N1	10 isolates	MIC90	-	-	-	0.5 µg/mL
CC(C)CC(NC(=O)C(Cc1ccccc1)NC(=O)OCc1ccccc1)C(=O)NC(C)C(=O)O	H37Rv	inhibition	12.5 µg/mL	-	BACTEC	0%
NNC(=O)c1cc(-c2ccc(-c3cccs3)s2)nc2ccccc12	H37Rv	MIC	-	-	fluorescence	>6.25 µg/mL
CNC(=O)c1cc(NC(=O)c2ccc(C(=O)Nc3cc(C(=O)NC)cc(C4=NCCN4)c3)cc2)cc(C2=NCCN2)c1	H37Rv	MIC bound	-	-	resazurin	>6.25 µg/mL
O=C(Cc1csc2nc(-c3ccccc3)cn12)NN=C1CCCC1	H37Rv	MIC	-	-	-	>6.25 µg/mL
O=C(c1ccccc1)C1Nc2ccc(Cl)cc2C2c3ccccc3OC12	H37Rv	inhibition	12.5 µg/mL	-	BACTEC	71%
CC1CCC(=NNC(=O)Cc2csc3nc(-c4ccccc4)cn23)CC1	H37Rv	EC50	-	-	-	>6.25 µg/mL
C[C@H]1COc2c(N3CCN(C)CC3)c(F)cc3c(=O)c(C(=O)O)cn1c23	1R	MIC	-	-	-	0.5 µg/mL
O=C(Nc1nc(-c2ccccc2)cs1)c1cc(-c2ccc([N+](=O)[O-])s2)nc2ccccc12	H37Rv	MIC	-	-	fluorescence	6.25 µg/mL
Cc1cccc2oc3ccccc3c(=O)c12	H37Rv	inhibition	4 µg/mL	-	-	inactive
CCCOc1ccc(/C=C2/NC(=S)NC2=O)cc1	H37Rv	EC50	-	-	-	<6.25 µg/mL
OC[C@H]1O[C@@H](c2ccc(OCc3ccccc3)cc2OCc2ccccc2)[C@H](O)[C@@H]1O	H37Rv	inhibition	12.5 µg/mL	-	BACTEC	43%
Cc1ccc(NC(=O)c2cc(/C=C/c3ccc(-c4ccc([N+](=O)[O-])s4)s3)nc3ccc(C)cc23)cc1	H37Rv	MIC	-	-	fluorescence	>6.25 µg/mL
CO/N=C(\C)c1cccc(F)c1NS(=O)(=O)c1nc2c(F)cnc(OC)n2n1	M22	MIC50	-	INH RIF resistant	visual reading	1 µM
CO[C@H]1/C=C/O[C@@]2(C)Oc3c(C)c(O)c4c(O)c(c5c(c4c3C2=O)NC2(CCN(CC(C)C)CC2)N=5)=NC(=O)/C(C)=C\C=C\[C@H](C)[C@H](O)[C@@H](C)[C@@H](O)[C@@H](C)[C@H](OC(C)=O)[C@@H]1C	2356-5 (RIF-R)	MIC	-	-	-	1 µg/mL
CN1C(=O)C(=O)N(Cc2ccco2)C1=O	H37Rv	MIC bound	-	-	BACTEC	>12.5 µg/mL
O=C1NC(=S)N/C1=C/c1ccc2ccccc2c1	H37Rv	inhibition	6.25 µg/mL	-	-	53%
C(=C\c1ccccc1)/CCNc1ccccc1N1CCSCC1	103471	MIC	-	-	-	>16 µg/mL
COc1cc([N+](=O)[O-])c(S(=O)(=O)O)cc1-n1nc(C(=O)Nc2ccccc2)n[n+]1-c1cc(S(=O)(=O)O)c([N+](=O)[O-])cc1OC	H37Rv	MIC	-	-	BACTEC	≥12.5 µg/mL
Cn1cccc2nc(C/C(N)=N/O)nc1-2	193	MIC	-	-	-	500 µg/mL
O=C(O)c1c([N+](=O)[O-])ccc2oc3ccc([N+](=O)[O-])cc3c(=O)c12	H37Rv	inhibition	16 µg/mL	-	-	inactive
O=C(Nc1nc(-c2ccccc2)cs1)c1cc(/C=C/c2ccc([N+](=O)[O-])s2)nc2ccccc12	H37Rv	MIC	-	-	fluorescence	3.125 µg/mL
C1CCC2(CC1)O[C@@H]1[C@@H](O2)[C@@H](OC2O[C@@H]3COC4(CCCCC4)O[C@H]3[C@@H]3OC4(CCCCC4)O[C@@H]23)OC2COC3(CCCCC3)O[C@H]21	H37Rv	MIC bound	-	-	BACTEC	≤12.5 µg/mL
O=C(Nc1nc(-c2ccc(Br)s2)cs1)c1cc(-c2ccc(-c3ccc([N+](=O)[O-])s3)s2)nc2ccccc12	H37Rv	MIC	-	-	fluorescence	6.25 µg/mL
O=C1NC(=S)N/C1=C/c1cccc(OCc2ccc(Cl)cc2)c1	H37Rv	EC50	-	-	-	<6.25 µg/mL
Nc1ccc2oc3ccc(C(=O)O)cc3c(=O)c2c1	H37Rv	inhibition	16 µg/mL	-	-	inactive
CN1/C(=C/C(=O)NN)N(C)c2ncccc21	109	MIC	-	-	-	250 µg/mL
O=C(Nc1nc(-c2cccs2)cs1)c1cc(-c2ccc([N+](=O)[O-])s2)nc2ccccc12	H37Rv	MIC	-	-	fluorescence	6.25 µg/mL
CC1SC2(CCCCC2)N(NC(=O)Cc2csc3nc(-c4ccc(Cl)cc4)cn23)C1=O	H37Rv	MIC	-	-	-	<6.25 µg/mL
Cc1ccc2oc3ccccc3c(=O)c2c1[N+](=O)[O-]	H37Rv	inhibition	4 µg/mL	-	-	inactive
CC1CCC2(CC1)SCC(=O)N2NC(=O)Cc1csc2nc(-c3ccc(Cl)cc3)cn12	H37Rv	inhibition	6.25 µg/mL	-	-	65%
CN1c2ccccc2S(=O)(=O)n2c(COc3ccc(Cl)cc3)nnc21	H37Rv	MIC bound	-	-	resazurin	>6.25 µg/mL
C=C(C)CC[C@H]1CN(c2ccn(N3CCOCC3)c2)C(=O)O1	ATCC 35820 (streptomycin-resistant)	MIC90	-	-	-	>100 µM
NNC(=O)c1ccncc1	Isolate K	MIC	-	-	-	>0.2 µg/mL
CCC1CCC(=NNC(=O)Cc2csc3nc(-c4ccc(Cl)cc4)cn23)CC1	H37Rv	MIC	-	-	-	<6.25 µg/mL
Cc1ccc(C)c(NC(=O)C(=O)Nn2c(=S)[nH]c3ccccc3c2=O)c1	H37Rv	MIC bound	-	-	BACTEC	>12.5 µg/mL
Cc1nc2nc(S(=O)(=O)Nc3c(Br)ccc4cccnc34)nn2c2c1CCC2	P887	MIC50	-	INH RIF resistant	visual reading	2 µM
CC1CCC2(CC1)SC(C)C(=O)N2NC(=O)Cc1csc2nc(-c3ccc(Cl)cc3)cn12	H37Rv	EC50	-	-	-	<6.25 µg/mL
CC(=O)OC(C)(C)/C=C/C(=O)[C@](C)(O)[C@H]1[C@H](O)C[C@@]2(C)[C@@H]3CC=C4[C@@H](C[C@H](O)C(=O)C4(C)C)[C@]3(CO)C(=O)C[C@]12C	H37Rv	MIC	-	-	BACTEC	≥12.8 µg/mL
CC(C)=CCC1C(=O)C(CC=C(C)C)(CC=C(C)C)C(O)C(C(=O)C(C)C)C1O	Isolate H	MIC	-	-	-	40.6 µg/mL
CCCCCCCCCC(=O)N[C@H]1[C@H](Oc2c3cc4cc2Oc2ccc(cc2Cl)[C@@H](O[C@@H]2O[C@H](CO)[C@@H](O)[C@H](O)[C@H]2NC(C)=O)[C@@H]2NC(=O)[C@H](NC(=O)[C@@H]4NC(=O)[C@H]4NC(=O)[C@@H](Cc5ccc(c(Cl)c5)O3)NC(=O)[C@H](N)c3ccc(O)c(c3)Oc3cc(O)cc4c3)c3ccc(O)c(c3)-c3c(O[C@H]4O[C@H](CO)[C@@H](O)[C@H](O)[C@@H]4O)cc(O)cc3[C@H](C(=O)O)NC2=O)O[C@H](CO)[C@@H](O)[C@@H]1O	L1909	MIC	-	-	-	>64 µg/mL
Cc1nc2cnc(=Nc3ccccc3)nc-2n(-c2ccccc2)c1C	H37Rv	MIC bound	-	-	BACTEC	>12.5 µg/mL
CC1COc2c(N3CCN(C)CC3)c(F)cc3c(=O)c(C(=O)O)cn1c23	64 isolates	MIC90	-	-	-	0.5 µg/mL
NNC(=O)c1cc(-c2ccc(-c3ccc([N+](=O)[O-])s3)s2)nc2ccccc12	H37Rv	MIC	-	-	fluorescence	6.25 µg/mL
O=C(O)c1cccc2cccc(-c3c4ccc(=O)c(O)c-4oc4c(O)c(O)ccc34)c12	H37Rv	MIC bound	-	-	BACTEC	>12.5 µg/mL
CC(C(N)=S)c1nc2ncccc2[nH]1	193	MIC	-	-	-	125 µg/mL
CO[C@H]1/C=C/O[C@@]2(C)Oc3c(C)c(O)c4c(O)c(c(/C=N/N5CCN(C)CC5)c(O)c4c3C2=O)NC(=O)/C(C)=C\C=C\[C@H](C)[C@H](O)[C@@H](C)[C@@H](O)[C@@H](C)[C@H](OC(C)=O)[C@@H]1C	13267	MIC	-	-	-	0.04 µg/mL
Cc1c([N+](=O)[O-])cc2c(=O)c3cc([N+](=O)[O-])ccc3oc2c1C	H37Rv	inhibition	8 µg/mL	-	-	inactive
NCC(=O)N/N=C/c1ccc([N+](=O)[O-])o1	KM-R	MIC	-	-	-	6.3 µg/mL
COc1ccc(/C=C2/NC(=S)NC2=O)c(OC)c1	H37Rv	EC50	-	-	-	<6.25 µg/mL
O=C(C/C=C/c1ccccc1)Nc1ccc(N2CCSCC2)cc1	103471	MIC	-	-	-	>16 µg/mL
Cc1cc2oc3ccc([N+](=O)[O-])cc3c(=O)c2cc1[N+](=O)[O-]	H37Rv	inhibition	8 µg/mL	-	-	inactive
CCCCn1c2ccccc2c2c(C)c3cnccc3c(C)c21	H37Rv	MIC bound	-	-	resazurin	<6.25 µg/mL
CC1(C)S[C@@H]2[C@H](NC(=O)[C@H](N)c3ccccc3)C(=O)N2[C@H]1C(=O)O	BIE	MIC	-	-	-	92 µM
c1ccc(-c2ccc(CNc3cccc(N4CCOCC4)c3)cc2)cc1	103471	MIC	-	-	-	8 µg/mL
CC1=NN(C(=O)c2ccncc2)C(=O)C1N=Nc1ccc(S(=O)(=O)Nc2nc(C)cc(C)n2)cc1	H37Rv	MIC	-	-	BACTEC	≥12.8 µg/mL
Cc1ccc(OC/C(N)=N\NC(=O)c2ccncc2)cc1	ATCC 35822 (isoniazid-resistant)	MIC	-	-	-	50 µg/mL
COc1cc2nc(C)[n+]3[nH]c(=O)ccc3c2cc1OC	H37Rv	inhibition	12.5 µg/mL	-	BACTEC	-2%
Cc1cc(-c2cc3c(cc2F)c(=O)c(C(=O)O)cn3C2CC2)cc(C)n1	1685-6	MIC	-	-	-	2 µg/mL
O=C(NNC(=S)NC1OC(CO)C(O)C(O)C1O)c1cccc(C(=O)NNC(=S)NC2OC(CO)C(O)C(O)C2O)n1	H37Rv	inhibition	12.5 µg/mL	-	BACTEC	17%
COC(=O)c1cccc2oc3ccccc3c(=O)c12	H37Rv	inhibition	8 µg/mL	-	-	inactive
CCOC(=O)[C@H]1O[C@@H]([C@@]2(C)O[C@]3(O[C@]4(C=C[C@H]3O)O[C@H]([C@@H](C)C(=O)[C@@H](C)[C@@H](O)[C@H](C)C[C@H](C)c3c(Cl)cc(C)c(O)c3C(=O)O)[C@@H](C)C[C@H]4C)[C@H](C)[C@H]2OC)C[C@H]1O	H37Rv	MIC	-	-	-	6.3 µg/mL
O=C1NC(=S)N/C1=C\c1ccc(OCc2ccc(Cl)cc2)cc1	H37Rv	EC50	-	-	-	<6.25 µg/mL